According to PubChem BioAssay AID504941 (Broad Institute, 2011):
The list shows a part of the results, in another mix than the full data. Measured potencies and affinities stand elsewhere. The source made the active and inactive calls. No rule for the calls is given here.

Experiment: twin-arginine translocation blockade, bacterial reporter – cherry-pick, set 2, plate reader, dose response (AID 504941)
Settings: E. coli Tat transport reporter; at 38 µM (top of the series)

Row | Compound | activity change, negative = inhibition
1 | O=C(NCC1(N2CCCCC2)CCCCC1)c1ccc(F)cc1 | inactive: 26.8%
